Measured values as given in PubChem BioAssay AID1251 (SRMLSC, 2008).
This is a selection; strong and weak results do not stand in their true shares. Calls of active or inactive are those of the source. Cut-off read from the data, not from the text of the source: active = inhibition above about 30%; inactive = the rest, inconclusive results apart.

Test: antivirals against arbovirus infection, primary screen, cell-based, full library, 10K replicate subset (AID 1251)
Settings: arbovirus infection cell-based antiviral screen; at 10 µM; active compounds read high

Question: Which inhibition does the source give for `O=C(NCC1(N2CCOCC2)CCCCC1)c1cc(=O)[nH]c2ccccc12` here?
Answer: inactive: 6.42%

Question: Which inhibition does the source give for `CN1CCN(CCOC(=O)C(O)(c2ccccc2)c2ccccc2)CC1` here?
Answer: inactive: 2.68%

Question: Which inhibition does the source give for `COc1ccc(NC2CCN(C(=O)OC(C)(C)C)CC2)cc1` here?
Answer: inactive: 0.72%

Question: With `N#CC1(Nc2ccccc2)CCN(CCc2ccccc2)CC1` as the compound, how does the inhibition read?
Answer: inactive: 3.48%

Question: With `O=C(NCC1(N2CCCCC2)CCCCC1)c1cccc([N+](=O)[O-])c1` as the compound, how does the inhibition read?
Answer: inactive: 4.7%

Question: With `CC(C)c1ccc(NC2CCN(C(=O)OC(C)(C)C)CC2)cc1` as the compound, how does the inhibition read?
Answer: inactive: 22.8%

Question: With `CN(C)c1cccc(C(=O)NCC2(N3CCCCC3)CCCCC2)c1` as the compound, how does the inhibition read?
Answer: inactive: 8.06%

Question: With `COc1ccc(CN(CCCl)CCCl)cc1Cl` as the compound, how does the inhibition read?
Answer: inactive: -0.34%

Question: With `O=C(NCC1(N2CCOCC2)CCCCC1)c1cc2ccccc2o1` as the compound, how does the inhibition read?
Answer: inactive: -2.15%

Question: For `O=C(OC1CN2CCC1CC2)C1c2ccccc2Oc2ccccc21` (stereo not given), which inhibition is on record?
Answer: inactive: 3.15%

Question: For `CCOC(=O)N1CCC(Nc2ccc(OC)cc2)CC1`, which inhibition is on record?
Answer: inactive: 2.16%

Question: Which inhibition does the source give for `COc1ccc(C(=O)NCC2(N3CCCCC3)CCCCC2)c(OC)c1OC` here?
Answer: inactive: -0.48%

Question: Which inhibition does the source give for `COc1ccc(NC2CCN(CCc3ccccc3)CC2)c(OC)c1` here?
Answer: inactive: -10.1%

Question: With `CCN1CCC(Nc2cccc(F)c2)CC1` as the compound, how does the inhibition read?
Answer: inactive: -6.04%

Question: With `CN(C)c1ccc(C(=O)NCC2(N3CCCCC3)CCCCC2)cc1` as the compound, how does the inhibition read?
Answer: inactive: -2.69%

Question: Which inhibition does the source give for `Fc1ccccc1NC1CCN(Cc2ccccc2)CC1` here?
Answer: inactive: -3.97%

Question: For `COc1cc(OC)cc(C(=O)NCC2(N3CCOCC3)CCCCC2)c1`, which inhibition is on record?
Answer: inactive: 1.83%

Question: With `CCC(CO)(C(=O)OC1CN2CCC1CC2)c1ccccc1` (stereo not given) as the compound, how does the inhibition read?
Answer: inactive: 6.56%

Question: Which inhibition does the source give for `CCOc1ncccc1C(=O)NCC1(N2CCOCC2)CCCCC1` here?
Answer: inactive: 8.67%

Question: With `CC(C)(C)OC(=O)N1CCC(Nc2ccccc2)CC1` as the compound, how does the inhibition read?
Answer: inactive: 0.43%

Question: For `N/C(=N\O)c1c(N)no[n+]1[O-]`, which inhibition is on record?
Answer: inactive: 1.78%

Question: For `O=C(OC1CN2CCC1CC2)C1c2ccccc2C=Cc2ccccc21` (stereo not given), which inhibition is on record?
Answer: inactive: -22.6%

Question: Which inhibition does the source give for `COc1ccc(C(=O)NCC2(N3CCOCC3)CCCCC2)cc1OC` here?
Answer: inactive: 6.12%

Question: For `c1ccc(CN2CCC(Nc3ccccc3)CC2)cc1`, which inhibition is on record?
Answer: inactive: -8.73%

Question: Which inhibition does the source give for `N#Cc1ccc(C(=O)NCC2(N3CCCCC3)CCCCC2)cc1` here?
Answer: inactive: 3.33%
